# Measurements: patent US20200262877A1, “ION CHANNEL-BINDING PEPTIDES AND METHODS OF USE THEREOF” (priority 2017, published 2020)
# T1: hERG, Q12809
# T1 chain: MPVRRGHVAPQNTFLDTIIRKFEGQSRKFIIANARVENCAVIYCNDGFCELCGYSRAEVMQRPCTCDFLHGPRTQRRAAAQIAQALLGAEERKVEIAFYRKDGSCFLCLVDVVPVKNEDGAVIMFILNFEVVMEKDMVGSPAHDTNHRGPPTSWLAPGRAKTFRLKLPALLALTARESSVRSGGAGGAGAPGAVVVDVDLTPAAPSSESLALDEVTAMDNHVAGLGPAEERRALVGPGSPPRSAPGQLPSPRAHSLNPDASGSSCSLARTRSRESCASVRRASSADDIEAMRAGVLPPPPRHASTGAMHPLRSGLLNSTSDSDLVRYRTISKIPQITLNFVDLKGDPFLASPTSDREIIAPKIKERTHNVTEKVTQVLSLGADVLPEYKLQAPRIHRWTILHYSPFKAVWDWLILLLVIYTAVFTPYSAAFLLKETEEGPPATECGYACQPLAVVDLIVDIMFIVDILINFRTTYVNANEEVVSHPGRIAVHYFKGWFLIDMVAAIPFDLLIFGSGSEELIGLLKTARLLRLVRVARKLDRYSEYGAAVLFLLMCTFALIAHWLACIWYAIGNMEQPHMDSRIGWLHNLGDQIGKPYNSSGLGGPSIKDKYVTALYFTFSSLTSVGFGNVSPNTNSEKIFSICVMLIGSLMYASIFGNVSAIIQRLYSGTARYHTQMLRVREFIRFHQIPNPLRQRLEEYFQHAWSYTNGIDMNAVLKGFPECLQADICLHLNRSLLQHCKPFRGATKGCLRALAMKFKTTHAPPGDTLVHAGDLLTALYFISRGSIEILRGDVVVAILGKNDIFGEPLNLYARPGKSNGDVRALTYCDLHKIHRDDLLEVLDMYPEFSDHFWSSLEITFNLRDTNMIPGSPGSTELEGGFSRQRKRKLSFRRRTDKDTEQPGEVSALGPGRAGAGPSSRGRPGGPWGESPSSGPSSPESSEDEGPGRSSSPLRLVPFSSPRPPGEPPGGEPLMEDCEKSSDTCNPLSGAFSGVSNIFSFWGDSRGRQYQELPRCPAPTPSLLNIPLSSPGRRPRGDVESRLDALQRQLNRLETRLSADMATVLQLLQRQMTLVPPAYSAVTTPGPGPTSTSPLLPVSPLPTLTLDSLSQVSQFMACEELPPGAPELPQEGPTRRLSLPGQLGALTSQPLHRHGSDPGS
# How the values were obtained:
# Assay in all cases: cell-based or functional assay
# hERG, Q12809 = biological target: T1, hERG, Q12809
# α4β2 nicotinic receptor = biological target: α4β2 nicotinic receptor
# Cav2.1 = biological target: Cav2.1
# Nav1.5 = biological target: Nav1.5
# α3β4 nicotinic receptor = biological target: α3β4 nicotinic receptor
# [1] = biological target: Kv1.3 potassium channel (human KCNA3 gene) (human), P22001
# [2] = biological target: Nav1.5 cardiac sodium channel (human SCN5A gene) (human), Q14524
# [3] = biological target: Nav1.4 sodium channel (human SCN4A gene) (human), P35499
# Kv2.1 = biological target: Kv2.1
# GABA = biological target: GABA
# Kv1.1 = biological target: Kv1.1
# [4] = biological target: Kv1.5 potassium channel (human KCNA5 gene) (human), P22460
# NR2A = biological target: NR2A
# [5] = biological target: Nav1.7 sodium channel (human SCN9A gene) (human), Q15858
# Kir2.1 = biological target: Kir2.1
# Kv1.3 = biological target: Kv1.3
# NR2B = biological target: NR2B
# Nav1.7 = biological target: Nav1.7
# TRPV1 = biological target: TRPV1
# Kv1.2 = biological target: Kv1.2
# TRPA1 = biological target: TRPA1
# 5HT3a = biological target: 5HT3a
# [6] = biological target: Nav1.3 sodium channel (human SCN3A gene) (human), Q9NY46
# Cav2.2 = biological target: Cav2.2
binder,measurement,setting,value
GSGVPINVKCRGSRDCLDPCKKAGMRFGKCINSKCHCTP (modifications not checked) [SEQ ID NO: 5],% activity at 0.2 µM,"hERG, Q12809",106%
same,% activity at 20 µM,"hERG, Q12809",67%
same,% activity at 0.2 µM,α4β2 nicotinic receptor,83%
same,% activity at 20 µM,α4β2 nicotinic receptor,93%
same,% activity at 0.2 µM,Cav2.1,100%
same,% activity at 20 µM,Cav2.1,121%
same,% activity at 0.2 µM (TP1),Nav1.5,107%
same,% activity at 0.2 µM (TP2),Nav1.5,107%
same,% activity at 20 µM (TP1),Nav1.5,103%
same,% activity at 20 µM (TP2),Nav1.5,105%
same,% activity at 0.2 µM,α3β4 nicotinic receptor,104%
same,% activity at 20 µM,α3β4 nicotinic receptor,90%
same,"IC50 of current inhibition, TP1",[1],> 1000 nM
same,"IC50 of current inhibition, TP6",[1],> 1000 nM
same,"IC50 of current inhibition, TP1",[2],> 1000 nM
same,"IC50 of current inhibition, TP2",[2],> 1000 nM
same,"IC50 of current inhibition, TP1",[3],> 1000 nM
same,"IC50 of current inhibition, TP2",[3],> 1000 nM
same,% activity at 0.2 µM,Kv2.1,110%
same,% activity at 20 µM,Kv2.1,109%
same,% activity at 0.2 µM,GABA,109%
same,% activity at 20 µM,GABA,114%
same,% activity at 20 µM,Kv1.1,55%
same,"IC50 of current inhibition, TP1",[4],> 1000 nM
same,"IC50 of current inhibition, TP6",[4],> 1000 nM
same,% activity at 0.2 µM,NR2A,109%
same,"IC50 of current inhibition, TP1",[5],> 1000 nM
same,"IC50 of current inhibition, TP2",[5],> 1000 nM
same,% activity at 0.2 µM,Kir2.1,103%
same,% activity at 0.2 µM,Kv1.3,98%
same,% activity at 20 µM,Kv1.3,28%
same,% activity at 0.2 µM,NR2B,112%
same,% activity at 20 µM,NR2B,95%
same,% activity at 0.2 µM (TP1),Nav1.7,98%
same,% activity at 0.2 µM (TP2),Nav1.7,109%
same,% activity at 20 µM (TP1),Nav1.7,79%
same,% activity at 20 µM (TP2),Nav1.7,66%
same,% activity at 0.2 µM,TRPV1,101%
same,% activity at 20 µM,TRPV1,101%
same,% activity at 0.2 µM,Kv1.2,89%
same,% activity at 20 µM,Kv1.2,73%
same,% activity at 0.2 µM,TRPA1,119%
same,% activity at 20 µM,TRPA1,75%
same,% activity at 20 µM,5HT3a,80%
same,"IC50 of current inhibition, TP1",[6],> 1000 nM
same,"IC50 of current inhibition, TP2",[6],> 1000 nM
same,% activity at 20 µM,Cav2.2,117%
GSVRIPVSCKHSGQCLKPCKDAGMRFGKCMNGKCDCTPK (modifications not checked) [SEQ ID NO: 6],% activity at 0.2 µM,"hERG, Q12809",107%
same,% activity at 20 µM,"hERG, Q12809",71%
same,% activity at 0.2 µM,α4β2 nicotinic receptor,71%
same,% activity at 20 µM,Cav2.1,111%
same,% activity at 20 µM (TP1),Nav1.5,116%
same,% activity at 20 µM (TP2),Nav1.5,120%
same,% activity at 0.2 µM,α3β4 nicotinic receptor,100%
same,"IC50 of current inhibition, TP1",[1],895 nM
same,"IC50 of current inhibition, TP6",[1],894 nM
same,"IC50 of current inhibition, TP1",[2],> 1000 nM
same,"IC50 of current inhibition, TP2",[2],> 1000 nM
same,"IC50 of current inhibition, TP1",[3],> 1000 nM
same,"IC50 of current inhibition, TP2",[3],> 1000 nM
same,% activity at 20 µM,Kv2.1,124%
same,% activity at 20 µM,Kv1.1,30%
same,"IC50 of current inhibition, TP1",[4],> 1000 nM
same,"IC50 of current inhibition, TP6",[4],> 1000 nM
same,"IC50 of current inhibition, TP1",[5],> 1000 nM
same,"IC50 of current inhibition, TP2",[5],> 1000 nM
same,% activity at 0.2 µM,Kv1.3,25%
same,% activity at 20 µM,Kv1.3,0%
same,% activity at 20 µM,NR2B,75%
same,% activity at 0.2 µM,Kv1.2,81%
same,% activity at 20 µM,Kv1.2,85%
same,% activity at 0.2 µM,TRPA1,126%
same,% activity at 0.2 µM,5HT3a,85%
same,% activity at 20 µM,5HT3a,84%
same,"IC50 of current inhibition, TP1",[6],> 1000 nM
same,"IC50 of current inhibition, TP2",[6],> 1000 nM
same,% activity at 20 µM,Cav2.2,107%
